Test results from patent US20030190650A1 (priority 2000, published 2003).

System: primary human neutrophils
Assay: PAO and neutrophil survival (MTT)
Details: low doses of PAO (0.1-1 μM)

In the case of O=[As]c1ccccc1 (stereo not shown), the “survival of neutrophils after 24 h in culture” value is reported as “increase the survival”.
